Measured values: the supplement of paper PMC9931576
Human monoclonal antibodies against the spike receptor-binding domain (heavy:light variable regions). IC50 against pseudoviruses bearing the spike of naturally observed variants; lower = stronger; >10 µg/ml means not reached at the top dose. No active / inactive call. The stated detection limit is 0.0005 µg/ml; values near or below 0.001 µg/ml lie at the floor of the assay.

B1: BD55-6516 (protein)
chain 1: EVQVVESGGGLVKPGGSLRLSCAGSGFTFNYAWMNWVRQAPGKGLEWVGRIKSETGGGTIDYAAPVRGRFIISRDDSKNMVYLHMNSLKTEDTAVYYCTTEATVTTWDALDIWGQGTLVTVSA
chain 2: QSVLTQPPSASGTSGQRVTISCSGSSSNIGSNSVNWYQQIPGTAPKLLIYRNNQRPSGVPDRFFASKSGTSASLAISGLHSDDEADYYCAAWDDRLNGFVFGTATKVTVL
B2: BD55-6526 (protein)
chain 1: QVHLVESGGGLVKPGGSLRLSCAASGFIFSDYYMSWVRQAPGKGLEWISYISTSSTDTYYADSVQGRFTISRDDAKNSLYLQMNSLRAEDTAVYYCARDFVEYDFLGAYYYMDVWGKGTTVTVSS
chain 2: DLQMTQSPSTLSASVGDRVTITCRASQSISTWLAWYQQKPGKAPKLLIYKASNLESGVPSRFSGSGSGTEFTLTISSLQPDDFATYYCQQYNIVSWTFGQGTKVEIK
B3: BD55-6537 (protein)
chain 1: EVHLEESGGGLVQPGKPLRLSCAASGFEFSSYSMNWVRQAPGKGLEWVAYVSSSGSTKQYGDSVRGRFTISRDNAKNSLFLQMNSLRDEDTAVYYCVRKKGSHDILTGYWHRDVFEIWGQGTKVIVSS
chain 2: DIQMTQSPSTLSASVGERVTITCRASQGISRWLAWYQQKPGRAPNLLIYETSSLESGVPSRFSGSGSGTVFTLTITSLQPDDFATYYCQQYYSDSRTFGQGTKVEIK
B4: BD55-1263 (protein)
chain 1: QVQVVQSGGEVKKPGASVKVSCKTSGYNFTNYGISWFRQAPGQGLEWMGWISPYNGNTKYVRKFQGRVTMITDTSSTTAYMELRSLRSDDTAFYYCARDAELGGRFDPWGQGTLVTVSS
chain 2: QSALTQPASVSGSPGQSITISCTGASSDVGSYKLVSWYQQHPGKAPKLLIYEVSNRPSGVSNRVSGSKSGNTASLTISGLQAEDEADYYCCAYAGSSTWVFGGGTKLTVL
B5: BD55-6539 (protein)
chain 1: EVQLLESGGGLVQPGGSLRLSCAASGFTFMRYAMSWVRQAPGKGLEWVSSMSGSGGNTYYADSVKGRFTISRDNSKNTLYLQMSSLRAEDTAVYYCVKDWSHYYDLSGYYPWVFDSWGQGTLVTVSS
chain 2: DIQMTQSPSSLSASVGDRVTITCRASQTINSYLHWYQQKPGKAPRLLIYAASSLQSGVPSRFSGSGSGTDFTLTISSLQPEDFATYYCQQSYSTPTFGQGTKVEIK
B6: BD55-6541 (protein)
chain 1: EVQLLESGGGLVQPGGSLRLSCAASGFTFSTYAMSWVRQGPGNGLDWIAAITADGGGSFYADSVKGRFTVSRDTSKNTLYLQMNSLRVEDTAVYYCAREYSGHDQVFDYWGQGALVTVSS
chain 2: DIQMTQSPSSLSASVGDRVTITCRAGQSISRYLNWYQQKAGKAPKLLIYGSSSLQSGVPSRFSGSGSGTDFTLTISSLQPEDFATYYCQQSYTSPSITFGQGTRLEIK

How the values were obtained:
Assay in all cases: pseudovirus neutralization IC50; higher = weaker neutralization
[1] = target: SARS-CoV-2 Omicron BA.1 spike pseudovirus
Procedure: (§1)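 Single-round VSV luciferase pseudovirus mixed with antibody dilutions for 1 h and put on Huh-7 cells for about a day; IC50 from the dose curve.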

[2] = target: SARS-CoV-2 Omicron BA.2 spike pseudovirus
Procedure: as §1

[3] = target: SARS-CoV-2 Omicron BA.2.75 spike pseudovirus
Procedure: as §1

[4] = target: SARS-CoV-2 Omicron BA.5 spike pseudovirus
Procedure: as §1

[5] = target: SARS-CoV-2 Omicron BQ.1.1 spike pseudovirus
Procedure: as §1

[6] = target: SARS-CoV-2 Omicron XBB spike pseudovirus
Procedure: as §1

[7] = target: SARS-CoV-2 early D614G spike pseudovirus
Procedure: as §1

Binder	pseudovirus neutralization IC50 [1]	pseudovirus neutralization IC50 [2]	pseudovirus neutralization IC50 [3]	pseudovirus neutralization IC50 [4]	pseudovirus neutralization IC50 [5]	pseudovirus neutralization IC50 [6]	pseudovirus neutralization IC50 [7]
B1	> 10 µg/mL	> 10 µg/mL	> 10 µg/mL	> 10 µg/mL	> 10 µg/mL	> 10 µg/mL	> 10 µg/mL
B2	> 10 µg/mL	> 10 µg/mL	> 10 µg/mL	> 10 µg/mL	> 10 µg/mL	> 10 µg/mL	> 10 µg/mL
B3	> 10 µg/mL	> 10 µg/mL	> 10 µg/mL	> 10 µg/mL	> 10 µg/mL	> 10 µg/mL	1.96 µg/mL
B4	> 10 µg/mL	> 10 µg/mL	> 10 µg/mL	> 10 µg/mL	> 10 µg/mL	> 10 µg/mL	0.001 µg/mL
B5	> 10 µg/mL	> 10 µg/mL	> 10 µg/mL	> 10 µg/mL	> 10 µg/mL	> 10 µg/mL	> 10 µg/mL
B6	> 10 µg/mL	> 10 µg/mL	> 10 µg/mL	> 10 µg/mL	> 10 µg/mL	> 10 µg/mL	5.09 µg/mL
